Tags and fusion partners may be left off the protein sequences shown.

In data set [1] the target is T1, OxyR-His (Pseudomonas aeruginosa MPAO1) (UniProt Q9HTL4).
T1 sequence (looked up): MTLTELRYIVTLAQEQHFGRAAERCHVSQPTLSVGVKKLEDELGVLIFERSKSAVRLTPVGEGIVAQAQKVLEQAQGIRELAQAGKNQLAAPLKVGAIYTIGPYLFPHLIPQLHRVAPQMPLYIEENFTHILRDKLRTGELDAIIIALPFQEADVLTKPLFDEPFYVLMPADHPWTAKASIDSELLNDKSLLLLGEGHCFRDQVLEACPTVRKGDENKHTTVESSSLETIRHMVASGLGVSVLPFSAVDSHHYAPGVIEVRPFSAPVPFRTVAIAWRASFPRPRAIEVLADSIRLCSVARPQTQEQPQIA
The data set is described as follows: competition with a labelled probe. The conditions noted are these: unlabeled 0-30 pmol against 0.1 pmol labeled N1, 50 pmol OxyR; 10 mM HEPES pH 7.3, 20 mM KCl, 5% glycerol, 5 mM MgCl2, NP-40, poly(dI-dC); 20 ul; 25 C, 1 h; 6% gel; recombinant protein; residues 1-310; protein details: C-terminal His6; probe letters rebuilt from the primers and the genome.

For data set [2], the target named is T1, OxyR-His (Pseudomonas aeruginosa MPAO1). Description: EMSA. The conditions noted are these: 0-50 pmol OxyR, 0.1 pmol probe in 20 ul, poly(dI-dC), 10 mM HEPES pH 7.3, 20 mM KCl, 5% glycerol, 5 mM MgCl2, NP-40, poly(dI-dC), 25 C, 1 h, 6% gel, recombinant protein, residues 1-310, protein details: C-terminal His6, label: biotin 3' end, probe letters rebuilt from the primers and the genome. A general note: In EMSA bound probe runs differently from free probe, usually more slowly.

On to “GGCGATGGAACCGCTTGCAATCCATAATGCGTAATTAGGGAAAATTTTTACTAGGACGTCGATTTCTTCCGTGCTCACGCGAATCGCGCCTTTGCTGACGCTTTTCCATCTCTCGTAATCGCCCCCGTGAAGGCTGACCTTTTTGGGGCCGATTTTCTTGATTAATAGTCTTGCTCTATCGGCTGACGTGCTCATATAGAAATTTATTCCGGGGAAATAGTTGCCCTGACGTGGCTTTGGGGAAATAATTTCTCCAGGGTAATTATTTCTCTAGCTGCGTATGGCTAATGCCACGAATAGTGACGGAATGAGC (double strand) [xisF4 promoter unlabeled competitor]”, for which the binding result in data set [1] was “binds”. Turning to “GGCGATGGAACCGCTTGCAATCCATAATGCGTAATTAGGGAAAATTTTTACTAGGACGTCGATTTCTTCCGTGCTCACGCGAATCGCGCCTTTGCTGACGCTTTTCCATCTCTCGTAATCGCCCCCGTGAAGGCTGACCTTTTTGGGGCCGATTTTCTTGATTAATAGTCTTGCTCTATCGGCTGACGTGCTCATATAGAAATTTATTCCGGGGAAATAGTTGCCCTGACGTGGCTTTGGGGAAATAATTTCTCCAGGGTAATTATTTCTCTAGCTGCGTATGGCTAATGCCACGAATAGTGACGGAATGAGC (double strand) [xisF4 promoter probe (313 bp)]”, the binding result in data set [2] is reported as “binds”.

These data come from article PMC12395586.
